Reference: PubChem BioAssay AID504761 (Drosophila RNAi Screening Center, 2011)
The deposit covers about 22,000 reagents; shown is a random part of those that have a named target and a result. In the full data, 116 (0.52%) were called active. 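Calls depend on retest data that are not deposited; infection was ranked per plate without normalising between plates; the unit of the infection score is not given.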 Reagents against one gene are numbered here. Further read-outs or replicates are left out here. Not given: the amount of reagent, the time to read-out.

Screen: 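Insect host genes that dengue virus relies on to spread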 (primary screen)
Cells: D.Mel-2 cells from Drosophila
Knock-down reagent: long dsRNA against Drosophila genes
Conditions: infection with dengue virus type 2; dose and infection time not stated
Measurement: 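Cells stained for dengue envelope protein and imaged; percent of infected cells per well on duplicate plates, ranked by infection, with stained nuclei counted for cell number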
Direction: infection score: higher = more virus-infected cells
Call rule: 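Low infection ranks in the two replicates (chance level up to 0.065) followed by a retest with a 1.5-fold or larger significant decrease, p below 0.05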
Meaning of the calls: active = confirmed: knock-down lowers infection; inactive = not picked or not confirmed

| gene | reagent | infection score, replicate 1 | infection score, replicate 2 | call |
| --- | --- | --- | --- | --- |
| CG13081 | 1 | 5.73 | 2.3 | inactive |
| CG15322 | 1 | 1.17 | 0.74 | inactive |
| CG15322 | 2 | 1.58 | 15.4 | inactive |
| csul (capsuleen) | 1 | – | 17.5 | inactive |
| CG14654 (retired record) | 1 | 1.85 | 2.84 | inactive |
| CG14654 (retired record) | 2 | 3.17 | 3.33 | inactive |
| Lapsyn (Leucine-rich repeat activity-regulated protein at synapses) | 1 | 13.7 | 3.83 | inactive |
| CG18130 | 1 | 4.76 | 0.99 | inactive |
| CG18130 | 2 | 4.15 | 4.23 | inactive |
| alpha-Est9 (alpha-Esterase-9) | 1 | 3.32 | 1.28 | inactive |
| CG32246 | 1 | 13.5 | 4.72 | inactive |
| CG32246 | 2 | 1.3 | 1.3 | inactive |
| CG10694 | 1 | 5.11 | 5.65 | inactive |
| ECSIT | 1 | 1.36 | 21.4 | inactive |
| TBC1d7 (TBC1 domain family member 7) | 1 | 0.81 | 5.68 | inactive |
| Phb1 (Prohibitin 1) | 1 | 20.2 | 29.9 | inactive |
| Phb1 (Prohibitin 1) | 2 | 4.35 | 3.97 | inactive |

In a second layout: results already given.
csul (capsuleen)
- infection score, replicate 2: 17.5
- call: inactive

CG14654 (retired record) #1
- infection score, replicate 1: 1.85
- infection score, replicate 2: 2.84
- call: inactive

Next records follow.
| gene | reagent | infection score, replicate 1 | infection score, replicate 2 | call |
| --- | --- | --- | --- | --- |
| CG11378 | 1 | 0.51 | 1.6 | inactive |
| CG11378 | 2 | 12.7 | 5.97 | inactive |
| cl (clot) | 1 | 4.7 | 9.7 | inactive |
| d4 | 1 | 10.6 | 34.8 | inactive |
| d4 | 2 | 4.14 | 3.19 | inactive |
| d4 | 3 | 1.55 | 1.93 | inactive |
| CAH3 (Carbonic anhydrase 3) | 1 | 3.13 | 1.29 | inactive |
| CG9289 | 1 | 5.28 | 2.69 | inactive |
| CG9289 | 2 | 16.5 | 23.6 | inactive |
| CG2698 | 1 | 6.7 | 16.9 | inactive |
| CG16890 | 1 | 40 | 21.7 | inactive |
| CG16890 | 2 | 14.2 | 4.66 | inactive |
| CG7857 | 1 | 5.21 | 8.85 | inactive |
| CG7857 | 2 | 18.5 | 13.1 | inactive |
| CG42724 | 1 | 5.34 | 13.1 | inactive |
| CG42724 | 2 | 4.16 | 3.78 | inactive |
| CG42724 | 3 | 8.07 | 5.53 | inactive |
| CG42724 | 4 | 7.08 | 17.3 | inactive |
| CG11664 | 1 | 20.1 | 12.7 | inactive |
| bru1 (bruno 1) | 1 | – | 4.56 | inactive |
| bru1 (bruno 1) | 2 | 0.52 | 1.13 | inactive |
| bru1 (bruno 1) | 3 | 4.19 | 2 | inactive |
| bru1 (bruno 1) | 4 | 5.2 | 2.51 | inactive |
| bru1 (bruno 1) | 5 | 12.4 | 12.2 | inactive |
